{"source": "patent US8012491B2", "about": "“Recombinant toxin fragments” (dated 2011)", "molecular_target": "native botulinum neurotoxin type A (Clostridium botulinum)"}
{"substance": "non-immune guinea pig antiserum (polyclonal serum or antibody)", "values": [{"measurement": "neutralisation assay: survivors on day 2 at 5 pg botulinum toxin/mouse", "value": 0, "unit": "survivors"}]}
